# Patent US20130189283A1 (Amgen, published 2013)
# Biological target: Kv1.3 voltage-gated potassium channel on T cells in human whole blood (human, UniProt P22001 1-575)
# Assay: cell-based or functional assay
Binder,"Potency Relative to ShK (WB, IL2) [fold]",WB (IFNg) IC50 [nM],WB (IL-2) IC50 [nM]
Monovalent Fc/Fc-ShK(1-35 Q16K) heterodimer (Fc fusion) chain 1: ERKVECPPCPAPPVAGPSVFLFPPKPKDTLMISRTPEVTCVVVDVSHEDPEVQFNWYVDGVEVHNAKTKPREEQFNSTFRVVSVLTVVHQDWLNGKEYKCKVSNKGLPAPIEKTISKTKGQPREPQVYTLPPSREEMTKNQVSLTCLVKGFYPSDIAVEWESNGQPENNYKTTPPMLDSDGSFFLYSKLTVDKSRWQQGNVFSCSVMHEALHNHYTQKSLSLSPGK chain 2: ERKVECPPCPAPPVAGPSVFLFPPKPKDTLMISRTPEVTCVVVDVSHEDPEVQFNWYVDGVEVHNAKTKPREEQFNSTFRVVSVLTVVHQDWLNGKEYKCKVSNKGLPAPIEKTISKTKGQPREPQVYTLPPSREEMTKNQVSLTCLVKGFYPSDIAVEWESNGQPENNYKTTPPMLDSDGSFFLYSKLTVDKSRWQQGNVFSCSVMHEALHNHYTQKSLSLSPGKGGGGSGGGGSRSCIDTIPKSRCTAFKCKHSMKYRLSFCRKTCGTC,2.39,0.499,0.16
"Bivalent Fc-ShK(1-35, Q16K) homodimer (Fc fusion) ERKVECPPCPAPPVAGPSVFLFPPKPKDTLMISRTPEVTCVVVDVSHEDPEVQFNWYVDGVEVHNAKTKPREEQFNSTFRVVSVLTVVHQDWLNGKEYKCKVSNKGLPAPIEKTISKTKGQPREPQVYTLPPSREEMTKNQVSLTCLVKGFYPSDIAVEWESNGQPENNYKTTPPMLDSDGSFFLYSKLTVDKSRWQQGNVFSCSVMHEALHNHYTQKSLSLSPGKGGGGSGGGGSRSCIDTIPKSRCTAFKCKHSMKYRLSFCRKTCGTC",27.6,3.14,1.85
